Measurements reported in US7632666B2 (priority 2005, dated 2009).

Target: haloalkane dehalogenase DmbA (Mycobacterium bovis, UniProt Q9XB14, T96A)
Settings: Table 2; 21° C., 50 mM Tris pH 8.2, enzyme 1 μM

`CCOC(=O)C(Br)CC` (racemic) [ethyl 2-bromobutyrate] was tested, and the “E-values DmbA” value was over 200.
